# The list shows a part of the results, in another mix than the full data. Active and inactive are the calls of the source. Rule as the data show it: active = inhibition above about 30%; inactive = the rest.
# System: Crimean-Congo hemorrhagic fever virus L polyprotein viral ovarian tumor (vOTU) protease domain
# Assay: CCHFV vOTU protease inhibitors, primary screen, biochemical, Pep-AMC substrate, fluorescence (AID 651958); also: 0% = vehicle wells with enzyme and 100% = no enzyme wells
# Details: at 11.5 µM, hits give high values
row,SMILES,inhibition
1,O=[N+]([O-])c1ccc(Nc2ccc(Oc3ccc([N+](=O)[O-])cc3[N+](=O)[O-])cc2)c([N+](=O)[O-])c1,inactive: 3.5%
2,Cc1cc(SC(NC=O)C(Cl)(Cl)Cl)ncn1 (configuration not stated),inactive: -8.85%
3,O=P(Nc1ccccn1)(c1cccc2ccccc12)c1cccc2ccccc12,inactive: -4.54%
4,CCOC(=O)Nc1cccc([As](=O)(O)O)c1,inactive: -0.56%
5,O=C(COc1ccccc1)OC1CN2CCC1CC2 (configuration not stated),inactive: 1.09%
6,O=C(Nc1ccncc1[N+](=O)[O-])c1ccc([N+](=O)[O-])cc1[N+](=O)[O-],inactive: -7.88%
7,O=C(O)C(=O)c1ccc(N(CCCl)CCCl)cc1,inactive: 9.59%
8,COP1(=S)c2c(C)nn(CCC#N)c2N=C(c2ccc(F)cc2)N1C (configuration not stated),inactive: -10.2%
9,COC(=O)C1(C)COP(=O)(N2CCCC2)OC1 (configuration not stated),inactive: 7.95%
10,CCC(C)N(CC(C)C)C(=S)SC(NC(C)=O)C(Cl)(Cl)Cl (configuration not stated),inactive: -2.19%
11,CCOC(=O)c1ccc(NC(=O)C(C)(CCl)SC)cc1 (configuration not stated),inactive: -2.76%
12,O=C(OC1CN2CCC1CC2)c1cccc([N+](=O)[O-])c1 (configuration not stated),inactive: 16.9%
13,COc1ccc2nc(NP(=O)(c3ccccc3)c3ccccc3)sc2c1,inactive: 3.18%
14,COc1cc(I)ccc1[As](=O)(O)O,inactive: 2.53%
15,O=P1(N(CCCl)CCCl)OCCCN1CCCl (configuration not stated),inactive: -6.88%
16,O=P1(N(CCCl)CCCl)Nc2ccccc2N1,inactive: 17.7%
17,O=C(OC1CN2CCC1CC2)C12CC3CC(CC(C3)C1)C2 (configuration not stated),inactive: 9.33%
18,Cc1cc(=O)[nH]c(N[N+](=O)[O-])n1,inactive: -10.3%
19,Cc1c2c(nc3ccccc13)SC(C(Cl)Cl)C2 (configuration not stated),inactive: -9.68%
20,COc1ccc(N/C(=N/P(=O)(N2CCOCC2)N2CCOCC2)N2CCOCC2)cc1,inactive: 6.57%
21,O=[N+]([O-])c1cc(Oc2ccc([N+](=O)[O-])cc2C(F)(F)F)cc([N+](=O)[O-])c1,inactive: -15.1%

row,SMILES,inhibition
1,Cc1ccc2nc3c(c(C)c2c1)CC(C(Cl)Cl)S3 (configuration not stated),inactive: 5.96%
2,Cc1ccc(OP(=O)(Nc2ccc([N+](=O)[O-])cn2)Oc2ccc(C)cc2)cc1,inactive: -17.1%
3,[N-]=[N+]=NC1CCCCC1NC(=O)c1cc([N+](=O)[O-])cc([N+](=O)[O-])c1 (configuration not stated),inactive: -2.91%
4,C[As](=O)(O)c1cccc(C(=O)O)c1,inactive: -2.97%
5,O=[As](O)(c1ccc(O)cc1)c1ccccc1O,inactive: -7.02%
6,COc1cc(C(=O)NCC2(N3CCOCC3)CCCCC2)ccc1OCC(C)C,inactive: -8.83%
7,O=[N+]([O-])c1ccc(-c2cc([N+](=O)[O-])c(O)c([N+](=O)[O-])c2)cc1,inactive: 9.76%
8,CCN(CC)C(=S)SC(NC=O)C(Cl)(Cl)Cl (configuration not stated),inactive: 5.43%
9,O=C(OC1CN2CCC1CC2)c1cccc2[nH]cnc12 (configuration not stated),inactive: 5.04%
10,CC(C)NC(=O)NP(=O)(Oc1ccccc1)Oc1ccccc1,inactive: 5.65%
11,CC(C)c1ccc(OP(=O)(Nc2ccccn2)Oc2ccccc2F)cc1 (configuration not stated),inactive: 2.35%
12,COC(=O)C1(C)COP(=O)(N2CCCCCC2)OC1 (configuration not stated),inactive: 9.21%
13,ClCCSc1nnc(-c2cccnc2)o1,inactive: -11.9%
14,O=C(O)COc1ccc([As](=O)(O)O)cc1[N+](=O)[O-],inactive: 4.43%
15,Nc1ccccc1[As](=O)(O)c1ccccc1,inactive: 3.49%
16,CCOP1(=S)c2c(C)nn(CCC#N)c2N=C(c2ccccc2F)N1C (configuration not stated),inactive: 7.71%
17,O=P(Nc1nccs1)(Oc1ccccc1)Oc1ccccc1,inactive: 4.63%
18,CN(C)C(=O)c1cc([N+](=O)[O-])cc2c1-c1c(cc([N+](=O)[O-])cc1[N+](=O)[O-])C2=O,inactive: -5.25%
19,O=[N+]([O-])c1ccc2c(c1)nnn2O,inactive: 6.9%
20,CN(C(=O)Cc1ccc(Cl)c(Cl)c1)[C@H]1CC[C@@]2(CCCO2)C[C@@H]1N1CCCC1,inactive: -5.18%
21,N#CCCN(C(=O)COC(=O)C(O)(c1ccccc1)c1ccccc1)c1ccc(F)cc1,inactive: -5.59%

row,SMILES,inhibition
1,CN(C(=O)Cc1ccccc1)[C@@H]1CC[C@]2(CCCO2)C[C@H]1N1CCCC1,inactive: -2.48%
2,CCOP1(=S)c2c(C)nn(CCC#N)c2N=C(c2ccc(F)cc2)N1C (configuration not stated),inactive: -11.2%
3,NC(=O)Nc1ccc([As](=O)(O)O)cc1,inactive: -8.1%
4,O=[As](O)(c1cccc(O)c1)c1cccc(O)c1,inactive: 0.97%
5,Cc1cccc(OCC(=O)OC2CN3CCC2CC3)c1 (configuration not stated),inactive: 3.77%
6,COc1cc(C(=O)NCC2(N3CCOCC3)CCCCC2)cc(Cl)c1OC(C)C,inactive: 11%
7,O=[As](O)(O)c1cccnc1,inactive: -0.92%
8,CS(=O)(=O)c1ccc(Cl)c(NC(=O)COC(=O)C(O)(c2ccccc2)c2ccccc2)c1,inactive: -8.46%
9,O=C(OC1CN2CCC1CC2)c1ccc(Cl)cc1 (configuration not stated),inactive: -1.19%
10,COc1cc(C2NCCC3(OCCO3)C2(C)C)cc(OC)c1OC (configuration not stated),inactive: -20.8%
11,CCOP(=O)(Nc1cccc2ccccc12)OCC,inactive: 2.86%
12,CCCOP(=S)(Nc1nc(N)cc(=O)[nH]1)OCCC,inactive: 26.9%
13,Cc1ccc(NCCc2c([N+](=O)[O-])cc([N+](=O)[O-])cc2[N+](=O)[O-])cc1,inactive: 8.35%
14,Nc1cccc2c([As](=O)(O)O)cccc12,active: 57.5%
15,Clc1n[nH]nc1-c1nn[nH][15n]1,inactive: 3.28%
16,O=P1(N(CCCl)CCCl)NCCC(C(F)(F)F)O1 (configuration not stated),inactive: -1.69%
17,CC(C)(C)C(=O)NC(Sc1ncccn1)C(Cl)(Cl)Cl (configuration not stated),inactive: 11.6%
18,CN(CCCl)Cc1cc(Cl)c(NC2=NCCN2)c(Cl)c1,inactive: 0.03%
19,CCOP(=O)(Nc1ccc(C)cn1)OCC,inactive: -17.3%
20,CCC1=CC2Cc3nc4ccc(Cl)cc4c(N)c3C(C1)C2 (configuration not stated),inactive: 9.44%
21,O=P1(Nc2ccccn2)COc2ccccc2OC1,inactive: 9.69%

row,SMILES,inhibition
1,CCOP(=O)(NC(=NC(C)c1ccccc1)NC(C)c1ccccc1)OCC (configuration not stated),inactive: 4.68%
2,CC1(CBr)Cn2c(nc3ccccc3c2=O)S1 (configuration not stated),inactive: 3.9%
3,CN(C(=O)Cc1ccc(Cl)c(Cl)c1)[C@@H]1CCCC[C@H]1N1CCCC1,inactive: 0.56%
4,CC(C)/C=N\N=C(\N)N[N+](=O)[O-],inactive: -2.45%
5,CN(C(=O)Cc1ccc(Cl)c(Cl)c1)C1CCCC[C@@H]1N1CCCC1 (some centres not stated),inactive: 2.47%
6,COc1ccccc1CNC(=O)COC(=O)C(O)(c1ccccc1)c1ccccc1,inactive: 19.7%
7,O=C(/C=C/c1ccccc1)OC1CN2CCC1CC2 (configuration not stated),inactive: -7.12%
8,CCCC1OP(=O)(Nc2ccccc2)OCC1CC (configuration not stated),inactive: 9.6%
9,CN(C)C1(CNC(=O)c2ccc(S(C)(=O)=O)cc2)CCCCC1,inactive: 7.08%
10,Cc1nn(-c2ccccc2)c2c1P(=O)(N1CCOCC1)N(C)C(c1ccccc1)=N2 (configuration not stated),inactive: -13%
11,Cc1ccc(C(=O)OC2CN3CCC2CC3)cc1 (configuration not stated),inactive: -6.79%
12,CC1CCC(C(C)C)C(OP(=O)(Nc2ccccn2)c2ccccc2)C1 (configuration not stated),inactive: 17.6%
13,NS(=O)(=O)c1cccc(NC(=O)COC(=O)C(O)(c2ccccc2)c2ccccc2)c1,inactive: 5.14%
14,O=P1(Nc2ccc(Br)cn2)COc2ccccc2OC1,inactive: -3.46%
15,Cc1ccc(OCC(=O)OC2CN3CCC2CC3)cc1 (configuration not stated),inactive: 10%
16,O=[As](O)(c1cccs1)c1cccs1,inactive: -6.4%
17,Nc1cccc([As](=O)(O)c2ccccc2)c1,inactive: 3.17%
18,O=P1(Nc2ncccn2)COc2ccccc2OC1,inactive: 8.91%
19,Cc1ccc(S(=O)(=O)N(CCCN)CCCc2c(C)nc(N)[nH]c2=O)cc1,inactive: 2.27%
